The entries are a selection whose mix differs from that of the whole data set. Results with a measured potency or affinity are listed apart. Calls of active or inactive are those of the source. The rule behind the calls is not given here.
Test: human monocytic cell viability reduction – S. typhimurium screen hits, cytotoxicity control for Salmonella PhoP regulon inhibitors, dose response (AID 2253)
Settings: THP-1 viability, CellTiter-Glo luminescence, 72 h; at 50 µM (top of the series)

Row | SMILES | viability
1 | CC1=NCCc2c1[nH]c1ccccc21.O=[N+]([O-])c1cc([N+](=O)[O-])c(O)c([N+](=O)[O-])c1 | inactive: 89.7%
